Data published in patent publication US20240300940A1, “Phenothiazinyl Compounds and Uses” (Prosetta Biosciences, Inc., priority 2023, published 2024).
Like-named read-outs stand apart in the source and are kept apart here.

Key:
[1] = tested on: sensitive and resistant gram-positive bacteria; conditions: at 4× and 8× MIC concentration
[2] = tested on: Macrolide resistant S. aureus ATCC BAA976
[3] = tested on: ciprofloxacin resistant E. faecium
[4] = tested on: Vancomycin resistant E. faecium ATCC 700221

## CC1(C)C2CN(c3ccc4nc5ccc(N6CC7C(C6)C7(C)C)cc5[s+]c4c3)CC21 (stereo not shown) [Compound 1, 3,7-Di(6,6-dimethyl-3-azabicyclo[3.1.0]hexan-N-yl)phenothiazinium iodide]
MDR S. aureus ATCC BAA44; MDR S. aureus ATCC BAA44, at 4X MIC
  Single step resistance frequency: 5 × 10^−10
MDR S. aureus ATCC BAA44; MDR S. aureus ATCC BAA44, at 8X MIC
  Single step resistance frequency: 5 × 10^−11
MRSA ATCC 43300; MRSA ATCC 43300, at 4X MIC
  Single step resistance frequency: 1.5 × 10^−9
MRSA ATCC 43300; MRSA ATCC 43300, at 8X MIC
  Single step resistance frequency: 1.5 × 10^−10
[1]
  Single step resistance frequency: less than 10^−9
MSSA ATCC 25923; MSSA ATCC 25923, at 4X MIC
  Single step resistance frequency: 2 × 10^−9
MSSA ATCC 25923; MSSA ATCC 25923, at 8X MIC
  Single step resistance frequency: 2 × 10^−10
[2]; Macrolide resistant S. aureus ATCC BAA976, at 4X MIC
  Single step resistance frequency: 8 × 10^−10
[2]; Macrolide resistant S. aureus ATCC BAA976, at 8X MIC
  Single step resistance frequency: 8 × 10^−11
[3]; at 4X MIC
  Single step resistance frequency: 2 × 10^−9
[3]; at 8X MIC
  Single step resistance frequency: 2 × 10^−9
[4]; Vancomycin resistant E. faecium ATCC 700221, at 4X MIC
  Single step resistance frequency: 2 × 10^−9
[4]; Vancomycin resistant E. faecium ATCC 700221, at 8X MIC
  Single step resistance frequency: 2 × 10^−9
